Here are results for one substance from article PMC9823235 (2022).

As usually defined, the Kd is the equilibrium constant for the complex coming apart. A low value points to tighter binding.

For this test, the target named is Shiga toxin 2a (Stx2a) holotoxin (enterohemorrhagic Escherichia coli (encoded by lysogenic lambdoid phages)) (UniProt P09385).

“P11, 11 amino-acid peptide mimicking the C-terminal 11 amino acids of the CTD of the ribosomal P-proteins” gave a dissociation constant (Kd) of 48 µM.
